# Human monoclonal antibodies against the spike receptor-binding domain (heavy:light variable regions). IC50 against pseudoviruses bearing the spike of naturally observed variants; lower = stronger; >10 µg/ml means not reached at the top dose. No active / inactive call. The stated detection limit is 0.0005 µg/ml; values near or below 0.001 µg/ml lie at the floor of the assay.
# B1: BD55-5887 (protein)
# chain 1: QVQLVQSGAEVKKPGASVKVSCKASGYTSTSYYMNWVRQAPGQGLEWMGIINPSRGSTSYAHKFQGRVTMTRDSSTSTVYMELSSLRSEDTAVYYCATFGGLMLKGSVFDLWGQGTMVTVSS
# chain 2: DIVMTQSPDSLAVSLGERATINCKSSQSVLYNSNNKNYLAWYQQKPGHPPKLLIYWASTRESGVPDRFSGSGSGTDFTLTISSLQAEDVAVYYCQQYSTTLPTFGQGTKLEIK
# B2: BD55-5889 (protein)
# chain 1: EVQLVESGGGLVQPGGSLRLSCAASGFTFSRYWMSWVRQAPGKGLEWVANIKRDGSEEIYVDSVKGRFTISRDNAQNSLYLLMNSLRAEDTAVYFCARAPVSYNILTPEYFDSWGQGTLVTVSS
# chain 2: SNELTQPPSVSVSPGQTARITCSGDTLPTQYTYWYQQKPGQAPVLVIYKDSERPSWIPERFSGSSSGTTGTLTISGVQAEDEADYYCQSADSISWVFGRGTKLTVL
# B3: BD55-1114 (protein)
# chain 1: EVQLVQSGAEMKKPGESLTISCKGSGYSFTNYGIAWVRQMPGKGLEWMGISHPGDSDATYSPSFQGQVTISADNSINTAYLQWSSLKDSDTAMYYCARTGIPQYKDILTGFRWDFDYWGQGTLVTVSS
# chain 2: EIVLTQSPATLSLSPGERATLSCRASQSFSNYLAWYQQKPGQAPRLLIYDASSRATGIPPRFSGSGSGTDFTLTISSLEPEDFAIYYCQQRTNWSPGTFGQGTKVEIK
# B4: BD55-5897 (protein)
# chain 1: EVHLVASGGGLIRPGGSLRLSCAASGFTVSSNYFSWVRQAPGKGLEWVSVIYPGGTTQYADSVKGRFTISRDNSKNTLYLQMNSLRADDTAVYYCARDLGSYLDYWGQGTLVTVSS
# chain 2: EIVLTQSPATLSVSPGERATLSCRTSQNIDNNLAWYQQKPGQAPRLLISGASTRATGVPARFSGSGSGTEFTLTISGLQSEDFAVYYCQQYNDWPSRPFGQGTKVEIK
# B5: BD55-5902 (protein)
# chain 1: EVQLVQSGAEVKKPGESLKISCKGSGYSFPYYWIGWVRQMPGKGLEWMGIMYPGDSDIRYSPSFQGQVTISADKSISTAYLQWSSLKASDTAMYYCVNTLLRRALVGSTGWAFDIWGQGTMVTVSS
# chain 2: QSVLTQPPSASGTPGQRVTISCSGSSSNIGSNTVNWYQQLPGTAPKLLIYSNNQWPSGVADRFSGSKSGTSASLAISGLQSEDEADYYCATWDDSLNGLVFGGGTKLTVL
# B6: BD55-5907 (protein)
# chain 1: QVQLVESGGGVVQPGRSLRLSCAASGFTFSNYGMHWVRQAPGKGLEWVALISYDGSNKYYADSVRGRFTVSRDNSKNTLYLQMNTLRVDDTGIYYCVIAVADHYYFYDGVDVWGQGTAVTVSS
# chain 2: DIVMTQSPLSLPVTPGEPASISCRSSQSLLHTNGFDYLDWYVQKPGHSPQLLIYLGSNRASGVPDRFSGSGSGTDFTLKISRVEAEDVGIYYCMQALQTPITFGQGTRLEIK
# Key:
# Assay in all cases: pseudovirus neutralization IC50; higher = weaker neutralization
# [1] = molecular target: SARS-CoV-2 Omicron BA.1 spike pseudovirus
# Procedure: (§1)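 Single-round VSV luciferase pseudovirus mixed with antibody dilutions for 1 h and put on Huh-7 cells for about a day; IC50 from the dose curve.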
# [2] = molecular target: SARS-CoV-2 Omicron BA.2 spike pseudovirus
# Procedure: as §1
# [3] = molecular target: SARS-CoV-2 Omicron BA.2.75 spike pseudovirus
# Procedure: as §1
# [4] = molecular target: SARS-CoV-2 Omicron BA.5 spike pseudovirus
# Procedure: as §1
# [5] = molecular target: SARS-CoV-2 Omicron BQ.1.1 spike pseudovirus
# Procedure: as §1
# [6] = molecular target: SARS-CoV-2 Omicron XBB spike pseudovirus
# Procedure: as §1
# [7] = molecular target: SARS-CoV-2 early D614G spike pseudovirus
# Procedure: as §1
Binder,pseudovirus neutralization IC50 [1],pseudovirus neutralization IC50 [2],pseudovirus neutralization IC50 [3],pseudovirus neutralization IC50 [4],pseudovirus neutralization IC50 [5],pseudovirus neutralization IC50 [6],pseudovirus neutralization IC50 [7]
B1,0.42 µg/mL,0.258 µg/mL,0.063 µg/mL,> 10 µg/mL,> 10 µg/mL,> 10 µg/mL,0.00103 µg/mL
B2,> 10 µg/mL,> 10 µg/mL,> 10 µg/mL,> 10 µg/mL,> 10 µg/mL,> 10 µg/mL,1.72 µg/mL
B3,0.151 µg/mL,0.19 µg/mL,0.171 µg/mL,0.312 µg/mL,> 10 µg/mL,> 10 µg/mL,0.001 µg/mL
B4,1.85 µg/mL,1.52 µg/mL,> 10 µg/mL,> 10 µg/mL,> 10 µg/mL,> 10 µg/mL,0.041 µg/mL
B5,> 10 µg/mL,> 10 µg/mL,> 10 µg/mL,> 10 µg/mL,> 10 µg/mL,> 10 µg/mL,0.285 µg/mL
B6,> 10 µg/mL,> 10 µg/mL,> 10 µg/mL,> 10 µg/mL,> 10 µg/mL,> 10 µg/mL,> 10 µg/mL
